A mixed list of measured activities; the numbers were collected in NIAID ChemDB.

Shared fields: growth or infection tests; agent: HIV-2; cell line: CEM; method: syncytia; endpoint: EC50

ECn: concentration that inhibits the pathogen or its effect by n%.

O=c1oc2cc(Cc3ccccc3)ccc2n1CCN1CCOCC1 ; strain or isolate: ROD ; result: >8 µg/mL
COc1ccc(C)cc1CS(=O)(=O)c1cccc[n+]1[O-] ; strain or isolate: ROD ; result: 40 µg/mL
Cn1c(=O)sc2cc(C(=O)c3cccc([N+](=O)[O-])c3)ccc21 ; strain or isolate: ROD ; result: >8 µg/mL
Cc1ccc(C)c(C(Cl)S(=O)(=O)c2cc(C)cc[n+]2[O-])c1 ; strain or isolate: ROD ; result: >4 µg/mL
CCCCCCCCCCCC(c1cc(C)ccc1C)S(=O)(=O)c1cccc[n+]1[O-] ; strain or isolate: ROD ; result: >20 µg/mL
O=S(=O)(Cc1ccccc1I)c1cccc[n+]1[O-] ; strain or isolate: EHO ; result: 12 µg/mL
Cc1ccc(C)c(CS(=O)(=O)c2ccccn2)c1 ; strain or isolate: EHO ; result: >20 µg/mL
O=C(O)c1ccc(CS(=O)(=O)c2cccc[n+]2[O-])cc1 ; strain or isolate: ROD ; result: ≥100 µg/mL
Cc1ccc(C)c(C(C)S(=O)(=O)c2ccc(C)c[n+]2[O-])c1 ; strain or isolate: ROD ; result: >100 µg/mL
Cc1cc(C)c(CS(=O)c2cccc[n+]2[O-])c(C)c1 ; strain or isolate: ROD ; result: 1.5 µg/mL
N#C/C(=C/c1ccc(Cl)cc1Cl)S(=O)(=O)c1cccc[n+]1[O-] ; strain or isolate: ROD ; result: >4 µg/mL
CC(=O)n1c(=O)sc2cc(C(=O)c3ccccc3)ccc21 ; strain or isolate: ROD ; result: 4.6 µg/mL
COc1ccc(C)cc1CS(=O)(=O)c1cccc[n+]1[O-] ; strain or isolate: EHO ; result: 44 µg/mL
CCC(c1cc(C)ccc1C)S(=O)(=O)c1cccc[n+]1[O-] ; strain or isolate: ROD ; result: >20 µg/mL
Cn1c(=O)sc2cc(C(=O)c3ccc(Cl)c(Cl)c3)ccc21 ; strain or isolate: ROD ; result: >8 µg/mL
COc1ccc(C)cc1CSc1cccc[n+]1[O-] ; strain or isolate: ROD ; result: ≥20 µg/mL
O=C(c1cccc([N+](=O)[O-])c1)c1ccc2[nH]c(=O)sc2c1 ; strain or isolate: ROD ; result: >1.6 µg/mL
Cc1ccccc1CS(=O)(=O)c1c(C)ccc[n+]1[O-] ; strain or isolate: ROD ; result: ≥20 µg/mL
CN(C)c1cccc(C(=O)c2ccc3c(c2)sc(=O)n3C)c1 ; strain or isolate: ROD ; result: >8 µg/mL
Cc1ccc(C)c(CS(=O)(=O)c2c(O)ccc[n+]2[O-])c1 ; strain or isolate: ROD ; result: >100 µg/mL
O=C(c1cccc(Cl)c1)c1ccc2[nH]c(=O)sc2c1 ; strain or isolate: ROD ; result: >1.6 µg/mL

The first 2 rows once more:

smiles	strain or isolate	result
O=c1oc2cc(Cc3ccccc3)ccc2n1CCN1CCOCC1	ROD	>8 µg/mL
COc1ccc(C)cc1CS(=O)(=O)c1cccc[n+]1[O-]	ROD	40 µg/mL

Lines come from different laboratories, so protocols vary.